This passage reports TD50 results from PubChem BioAssay AID1745844 (Carcinogenic Potency Database (CPDB), 2022).

For this series, the system named is rodent lifetime carcinogenesis bioassay, tumor incidence TD50. In words: chronic cancer bioassays in animals – CPDB, compiled studies (AID 1745844). Particulars: rat, strain Fischer 344, by gavage, dosed 104 weeks.

With `[Cl-].[Cl-].[Ti+4].c1cc[cH-]c1.c1cc[cH-]c1`, the TD50 runs as follows: (females, site: forestomach, lesion: squamous-cell papilloma, study length 106 weeks) 378 mg/kg/day; (females, site: liver, lesion: hepatocellular adenoma + hepatocellular carcinoma + neoplastic nodule, study length 106 weeks) 378 mg/kg/day; (males, site: any site (literature study), lesion: several types, types named in the paper, study length 105 weeks) 40 mg/kg/day; (males, site: forestomach, lesion: squamous-cell papilloma, study length 105 weeks) 88.6 mg/kg/day; (males, site: liver, lesion: hepatocellular adenoma + hepatocellular carcinoma + neoplastic nodule, study length 105 weeks) 143 mg/kg/day; (males, site: multiple organs, lesion: mesothelioma, malignant, study length 105 weeks) 158 mg/kg/day. This molecule returned a TD50 (males, site: pancreas, lesion: acinar-cell adenoma, study length 105 weeks) of 97.6 mg/kg/day.

As a reminder, the TD50 is the dose at which the toxic effect under study appears in half of the subjects.
